Measurements from patent publication US6974685B2, “High production method of prenyl alcohol using saccharomyces cells” (Toyota Jidosha Kabushiki Kaisha 1, priority 2000, dated 2005).

What was measured:
Assay type in all cases: cell-based
[1] = tested on: Saccharomyces cerevisiae strain ATCC 64031; assay: Effect of tocopherol on prenyl alcohol secretory production, GC/MS (Example 5, Table 1)
[2] = tested on: IFO 0974 Kuraishia capsulata; assay: Test-tube culture with ergosterol and squalene synthesis inhibitor SQAD, with or without glucose and soybean oil (Example 8)
[3] = tested on: IFO 0622 Candida glabrata; assay: as above
[4] = tested on: IFO 0717 Yarrowia lopolytica; assay: as above
[5] = tested on: IFO 3032 Baccilus amyloliquefaciens; assay: Control culture of bacterial strain in KB medium (Example 11, Table 14); details: treated with phosphatase
[6] = tested on: IFO 0215 Saccharomyces unisporus; assay: Test-tube culture with ergosterol and squalene synthesis inhibitor SQAD, with or without glucose and soybean oil (Example 8)
[7] = tested on: IFO 3762 Staphylococcus epidermidis; assay: Control culture of bacterial strain in KB medium (Example 11, Table 14); details: treated with phosphatase
[8] = tested on: IFO 0948 Komagataella pastoris; assay: Test-tube culture with ergosterol and squalene synthesis inhibitor SQAD, with or without glucose and soybean oil (Example 8)
[9] = tested on: IFO 1892 Saccharomyces kluyeri; assay: as above
[10] = YM + 4 mg/L ergosterol, SQAD 0 mg/L, 3 days
[11] = YM + 4 mg/L ergosterol, SQAD 0 mg/L, 7 days
[12] = YM + 4 mg/L ergosterol, SQAD 1 mg/L, 3 days
[13] = YM + 4 mg/L ergosterol, SQAD 1 mg/L, 7 days
[14] = YM + 4 mg/L ergosterol, SQAD 20 mg/L, 3 days
[15] = YM + 4 mg/L ergosterol, SQAD 20 mg/L, 7 days
[16] = YM + 5% glucose + 1% soybean oil + 4 mg/L ergosterol, SQAD 0 mg/L, 3 days
[17] = YM + 5% glucose + 1% soybean oil + 4 mg/L ergosterol, SQAD 0 mg/L, 7 days
[18] = YM + 5% glucose + 1% soybean oil + 4 mg/L ergosterol, SQAD 1 mg/L, 3 days
[19] = YM + 5% glucose + 1% soybean oil + 4 mg/L ergosterol, SQAD 1 mg/L, 7 days
[20] = YM + 5% glucose + 1% soybean oil + 4 mg/L ergosterol, SQAD 20 mg/L, 3 days
[21] = YM + 5% glucose + 1% soybean oil + 4 mg/L ergosterol, SQAD 20 mg/L, 7 days

## CC(C)=CCCC(C)=CCCC(C)=CC=O [FAL, farnesal]
[1]; Tocopherol 0 μM
  Cell fraction: 217 μg/L of culture solution
  Supernatant fraction: 84 μg/L of culture solution
[1]; Tocopherol 20 μM
  Cell fraction: 179 μg/L of culture solution
  Supernatant fraction: 84 μg/L of culture solution
[1]; Tocopherol 200 μM
  Cell fraction: 127 μg/L of culture solution
  Supernatant fraction: 120 μg/L of culture solution

## C=CC(C)(O)CCC=C(C)CCC=C(C)C (stereo not shown) [NE, nerolidol]
[2]; [10]
  Cell fraction: 0.0 μg/L of culture solution
  Supernatant fraction: 0.0 μg/L of culture solution
[2]; [11]
  Cell fraction: 0.0 μg/L of culture solution
  Supernatant fraction: 0.0 μg/L of culture solution
[2]; [12]
  Cell fraction: 0.0 μg/L of culture solution
  Supernatant fraction: 0.0 μg/L of culture solution
[2]; [13]
  Cell fraction: 0.0 μg/L of culture solution
  Supernatant fraction: 0.0 μg/L of culture solution
[2]; [14]
  Cell fraction: 0.0 μg/L of culture solution
  Supernatant fraction: 0.0 μg/L of culture solution
[2]; [15]
  Cell fraction: 0.0 μg/L of culture solution
  Supernatant fraction: 0.0 μg/L of culture solution
[2]; [16]
  Cell fraction: 0.0 μg/L of culture solution
  Supernatant fraction: 0.0 μg/L of culture solution
[2]; [17]
  Cell fraction: 0.0 μg/L of culture solution
  Supernatant fraction: 0.0 μg/L of culture solution
[2]; [18]
  Cell fraction: 0.0 μg/L of culture solution
  Supernatant fraction: 0.0 μg/L of culture solution
[2]; [19]
  Cell fraction: 0.0 μg/L of culture solution
  Supernatant fraction: 0.0 μg/L of culture solution
[2]; [20]
  Cell fraction: 0.0 μg/L of culture solution
  Supernatant fraction: 0.0 μg/L of culture solution
[2]; [21]
  Cell fraction: 0.0 μg/L of culture solution
  Supernatant fraction: 35.9 μg/L of culture solution
[3]; [10]
  Cell fraction: 0.0 μg/L of culture solution
  Supernatant fraction: 0.0 μg/L of culture solution
[3]; [11]
  Cell fraction: 0.0 μg/L of culture solution
  Supernatant fraction: 0.0 μg/L of culture solution
[3]; [12]
  Cell fraction: 0.0 μg/L of culture solution
  Supernatant fraction: 0.0 μg/L of culture solution
[3]; [13]
  Cell fraction: 0.0 μg/L of culture solution
  Supernatant fraction: 0.0 μg/L of culture solution
[3]; [14]
  Cell fraction: 0.0 μg/L of culture solution
  Supernatant fraction: 0.0 μg/L of culture solution
[3]; [15]
  Cell fraction: 0.0 μg/L of culture solution
  Supernatant fraction: 0.0 μg/L of culture solution
[3]; [16]
  Cell fraction: 0.0 μg/L of culture solution
  Supernatant fraction: 0.0 μg/L of culture solution
[3]; [17]
  Cell fraction: 0.0 μg/L of culture solution
  Supernatant fraction: 11.6 μg/L of culture solution
[3]; [18]
  Cell fraction: 0.0 μg/L of culture solution
  Supernatant fraction: 9.4 μg/L of culture solution
[3]; [19]
  Cell fraction: 0.0 μg/L of culture solution
  Supernatant fraction: 17.2 μg/L of culture solution
[3]; [20]
  Cell fraction: 0.0 μg/L of culture solution
  Supernatant fraction: 422.2 μg/L of culture solution
[3]; [21]
  Cell fraction: 138.0 μg/L of culture solution
  Supernatant fraction: 1256.9 μg/L of culture solution
[4]; [10]
  Cell fraction: 0.0 μg/L of culture solution
  Supernatant fraction: 0.0 μg/L of culture solution
[4]; [11]
  Cell fraction: 0.0 μg/L of culture solution
  Supernatant fraction: 0.0 μg/L of culture solution
[4]; [12]
  Cell fraction: 0.0 μg/L of culture solution
  Supernatant fraction: 0.0 μg/L of culture solution
[4]; [13]
  Cell fraction: 0.0 μg/L of culture solution
  Supernatant fraction: 0.0 μg/L of culture solution
[4]; [14]
  Cell fraction: 0.0 μg/L of culture solution
  Supernatant fraction: 0.0 μg/L of culture solution
[4]; [15]
  Cell fraction: 0.0 μg/L of culture solution
  Supernatant fraction: 0.0 μg/L of culture solution
[4]; [16]
  Cell fraction: 0.0 μg/L of culture solution
  Supernatant fraction: 0.0 μg/L of culture solution
[4]; [17]
  Cell fraction: 0.0 μg/L of culture solution
  Supernatant fraction: 0.0 μg/L of culture solution
[4]; [18]
  Cell fraction: 0.0 μg/L of culture solution
  Supernatant fraction: 2.4 μg/L of culture solution
[4]; [19]
  Cell fraction: 0.0 μg/L of culture solution
  Supernatant fraction: 19.0 μg/L of culture solution
[4]; [20]
  Cell fraction: 0.0 μg/L of culture solution
  Supernatant fraction: 19.0 μg/L of culture solution
[4]; [21]
  Cell fraction: 0.0 μg/L of culture solution
  Supernatant fraction: 156.7 μg/L of culture solution
[5]
  Cell fraction: 0.0 μg/L of culture solution
  Supernatant fraction: 0.0 μg/L of culture solution
[6]; [10]
  Cell fraction: 0.0 μg/L of culture solution
  Supernatant fraction: 0.0 μg/L of culture solution
[6]; [11]
  Cell fraction: 0.0 μg/L of culture solution
  Supernatant fraction: 0.0 μg/L of culture solution
[6]; [12]
  Cell fraction: 0.0 μg/L of culture solution
  Supernatant fraction: 0.0 μg/L of culture solution
[6]; [13]
  Cell fraction: 0.0 μg/L of culture solution
  Supernatant fraction: 0.0 μg/L of culture solution
[6]; [14]
  Cell fraction: 0.0 μg/L of culture solution
  Supernatant fraction: 0.0 μg/L of culture solution
[6]; [15]
  Cell fraction: 0.0 μg/L of culture solution
  Supernatant fraction: 0.0 μg/L of culture solution
[6]; [16]
  Cell fraction: 0.0 μg/L of culture solution
  Supernatant fraction: 16.3 μg/L of culture solution
[6]; [17]
  Cell fraction: 0.0 μg/L of culture solution
  Supernatant fraction: 19.6 μg/L of culture solution
[6]; [18]
  Cell fraction: 0.0 μg/L of culture solution
  Supernatant fraction: 12.2 μg/L of culture solution
[6]; [19]
  Cell fraction: 0.0 μg/L of culture solution
  Supernatant fraction: 27.3 μg/L of culture solution
[6]; [20]
  Cell fraction: 0.0 μg/L of culture solution
  Supernatant fraction: 67.4 μg/L of culture solution
[6]; [21]
  Cell fraction: 8.6 μg/L of culture solution
  Supernatant fraction: 466.6 μg/L of culture solution
[7]
  Cell fraction: 0.0 μg/L of culture solution
  Supernatant fraction: 0.0 μg/L of culture solution
[8]; [10]
  Cell fraction: 0.0 μg/L of culture solution
  Supernatant fraction: 0.0 μg/L of culture solution
[8]; [11]
  Cell fraction: 0.0 μg/L of culture solution
  Supernatant fraction: 0.0 μg/L of culture solution
[8]; [12]
  Cell fraction: 0.0 μg/L of culture solution
  Supernatant fraction: 0.0 μg/L of culture solution
[8]; [13]
  Cell fraction: 0.0 μg/L of culture solution
  Supernatant fraction: 0.0 μg/L of culture solution
[8]; [14]
  Cell fraction: 0.0 μg/L of culture solution
  Supernatant fraction: 0.0 μg/L of culture solution
[8]; [15]
  Cell fraction: 0.0 μg/L of culture solution
  Supernatant fraction: 0.0 μg/L of culture solution
[8]; [16]
  Cell fraction: 0.0 μg/L of culture solution
  Supernatant fraction: 0.0 μg/L of culture solution
[8]; [17]
  Cell fraction: 0.0 μg/L of culture solution
  Supernatant fraction: 0.0 μg/L of culture solution
[8]; [18]
  Cell fraction: 0.0 μg/L of culture solution
  Supernatant fraction: 0.0 μg/L of culture solution
[8]; [19]
  Cell fraction: 0.0 μg/L of culture solution
  Supernatant fraction: 0.0 μg/L of culture solution
[8]; [20]
  Cell fraction: 0.0 μg/L of culture solution
  Supernatant fraction: 17.2 μg/L of culture solution
[8]; [21]
  Cell fraction: 0.0 μg/L of culture solution
  Supernatant fraction: 34.2 μg/L of culture solution
[9]; [10]
  Cell fraction: 0.0 μg/L of culture solution
  Supernatant fraction: 0.0 μg/L of culture solution
[9]; [11]
  Cell fraction: 0.0 μg/L of culture solution
  Supernatant fraction: 0.0 μg/L of culture solution
[9]; [12]
  Cell fraction: 0.0 μg/L of culture solution
  Supernatant fraction: 0.0 μg/L of culture solution
[9]; [13]
  Cell fraction: 0.0 μg/L of culture solution
  Supernatant fraction: 0.0 μg/L of culture solution
[9]; [14]
  Cell fraction: 0.0 μg/L of culture solution
  Supernatant fraction: 0.0 μg/L of culture solution
[9]; [15]
  Cell fraction: 0.0 μg/L of culture solution
  Supernatant fraction: 0.0 μg/L of culture solution
[9]; [16]
  Cell fraction: 0.0 μg/L of culture solution
  Supernatant fraction: 0.0 μg/L of culture solution
[9]; [17]
  Cell fraction: 0.0 μg/L of culture solution
  Supernatant fraction: 0.0 μg/L of culture solution
[9]; [18]
  Cell fraction: 0.0 μg/L of culture solution
  Supernatant fraction: 0.0 μg/L of culture solution
[9]; [19]
  Cell fraction: 0.0 μg/L of culture solution
  Supernatant fraction: 23.5 μg/L of culture solution
[9]; [20]
  Cell fraction: 0.0 μg/L of culture solution
  Supernatant fraction: 0.0 μg/L of culture solution
[9]; [21]
  Cell fraction: 0.0 μg/L of culture solution
  Supernatant fraction: 44.1 μg/L of culture solution

## dehydrofarnesol [DHFOH]
[1]; Tocopherol 0 μM
  Cell fraction: 4630 μg/L of culture solution
  Supernatant fraction: 1238 μg/L of culture solution
[1]; Tocopherol 20 μM
  Cell fraction: 3622 μg/L of culture solution
  Supernatant fraction: 1573 μg/L of culture solution
[1]; Tocopherol 200 μM
  Cell fraction: 2206 μg/L of culture solution
  Supernatant fraction: 3527 μg/L of culture solution
